Assay results as given in patent publication US10428320B2, “Crystal structure of Staphylococcus aureus Autolysin E, method of producing the crystal and its use in screening methods” (J. Stefan Institute, priority 2015, dated 2019).

Test system: S. aureus biofilm formation
Assay: Biofilm formation assay (crystal violet, OD 595 nm)
Type: cell-based, Staphylococcus aureus
Details: enzyme added at 0, 0.5, 1, 2 and 5 μM, pH 6, 48 hours, 30° C.
Experimental: • The effect of recombinant autolysins on the S. aureus biofilm formation was performed as described [Merritt et al. 2011]. In brief, saturated culture of S. aureus grown overnight in BHI medium was diluted 1:100 in buffered BHI medium (supplemented with 0.1 M phosphate buffer pH 6.0 containing 0, 0.5, 1, 2 and 5 μM concentration of individual enzyme. 100 μl of each diluted culture was pipetted in 96-well plate (TPP). The plates were covered and incubated in a humidified incubator at 30° C. After 48 hours, the media was removed and the plates were three times washed with water. After the last washing step all remaining liquid was removed and 125 μl of 0.1% crystal violet was added to each well to dye the attached cells. After 10 minutes of incubation at the room temperature, the solution of crystal violet was removed and plates were washed several times with water until all unbound dye was removed. After the plates were completely dried at room temperature, the dyed biofilms were dissolved in 200 μl of 30% acetic acid. After 20 minutes of incubation at room temperature, the plates were briefly mixed and 100 μl of the crystal violet/acetic acid solution was transferred to a fresh 96 well micro-titer plate and the optical density of the samples was measured ad 595 nm. All experiments were performed in triplicates with AtlE, AtlA A138E mutant, and glu-AtlA domain assayed at pH 6. 6. […]

B1: AtlE: recombinant glucosaminidase domain of Autolysin E of S. aureus Mu50, encoded by SAV2307 (protein)
chain: SAAANDVNYSFDEAVSMQQGKGIVQTKEEDGKFVEANNNEIAKAMTISHKDNDMKYMDITEKVPMSESEVNQLLKGKGILENRGKVFLEAQEKYEVNVIYLVSHALVETGNGKSELAKGIKDGKKRYYNFFGIGAFDSSAVRSGKSYAEKEQWTSPDKAIIGGAKFIRNEYFENNQLNLYQMRWNPENPAQHQYASDIRWADKIAKLMDKSYKQFGIKKDDIRQTYYK
- effect on biofilm formation: increased the formation of biofilms in a concentration dependent manner
